# Laboratory results: PMC9778238, “How Discoloration of Porcine Cruor Hydrolysate Allowed the Identification of New Antifungal Peptides” (Foods, 2022)
# Assay: Loss of peptide on discoloration (heme precipitation at pH 4.5), peak area in RP-UPLC-MS/MS
# Conditions: variation of the peak area of the peptide between raw and discolored hydrolysate spectra; 100 = absent in discolored hydrolysate
row,Substance,Decrease (%)
1,AAFQKVVAGVANA [porcine hemoglobin fragment β 129–141],100.0
2,CLLVTLAAHHPDDFNPS [porcine hemoglobin fragment α 104–120],46.0
3,DPENFRLLGNVIVVVLA [porcine hemoglobin fragment β 100–116],38.0
4,ERMFLGF [porcine hemoglobin fragment α 30–36],17.5
5,ERMFLGFPTTKTYFPHF [porcine hemoglobin fragment α 30–46],19.8
6,FESFGDLSNAD [porcine hemoglobin fragment β 43–53],100.0
7,FRLLGNVIVVVLARRLGHDFNPNVQ [porcine hemoglobin fragment β 104–128],100.0
8,GAEALERMFLGFPT [porcine hemoglobin fragment α 25–38],38.0
9,GLWGKVNVDEVGGEALGRL [porcine hemoglobin fragment β 14–32],49.9
10,HVDPENFRLLGNVIV [porcine hemoglobin fragment β 98–112],25.0
11,"HVDPENFRLLGNVIVVVLARRLGHDFNPNVQA [porcine hemoglobin fragment β 98–129, synthesized]",100.0
12,KLLSHCLLVTLAAHHPD [porcine hemoglobin fragment α 99–115],38.0
13,LERMFLGF [porcine hemoglobin fragment α 29–36],20.4
14,LSDLHAHKLRVDPVNF [porcine hemoglobin fragment α 83–98],22.5
15,PNVQAAFQKVVAGVANALA [porcine hemoglobin fragment β 125–143],38.0
16,RMFLGFPTTKTYFPHF [porcine hemoglobin fragment α 31–46],22.6
17,SDLHAHKLRVDPVNF [porcine hemoglobin fragment α 84–98],12.0
18,SFGDLSNADAVMGNPKVK [porcine hemoglobin fragment β 45–62],46.0
19,SFSDGLKHLDNLKGTFA [porcine hemoglobin fragment β 71–87],46.0
20,SNADAVMGNPKVKAH [porcine hemoglobin fragment β 50–64],38.0
21,VLTSKYR [porcine hemoglobin fragment α 135–141],10.1
